Compound potency records, mixed from different reports. Data source: NIAID ChemDB in PubChem.

Shared fields: tests in culture; agent: Poliovirus; measure: EC50

Neighbouring rows are from separate reports.

structure | cell line | strain | result
CSc1nsc(-c2ccc(OC(C)(C)C)cc2)c1C#N | HEP-2 | TYPE 1 | 0.3 µM
CCOc1ccc(-c2cc(N3CCCCC3)no2)c(O)c1 | VERO | SABIN (TYPE 1) | >347 µM
Cc1ccc(C(=O)CCCCCCOc2ccc(C3=NCCO3)cc2)s1 | VERO | TYPE 1 | >26.95 µM
COc1cc(/C=C/C(=O)Oc2c(-c3ccc(Cl)cc3)oc3ccccc3c2=O)ccc1OC(C)=O | HeLa | TYPE 2 | >1.56 µM
O=c1c(Cc2ccc(O)cc2)coc2ccccc12 | HeLa | TYPE 2 | >25 µM
COc1ccc(-c2cc(N3CCCC3)no2)c(O)c1 | VERO | SABIN (TYPE 1) | >384 µM
Nc1ccn(CC[C@H](O)CCO)c(=O)n1 | HeLa | TYPE 1 | >400 µg/mL
C=C(N=CC)c1nc(-c2ccc(OC)cc2)n(C2O[C@H](CO)[C@@H](O)[C@H](O)[C@H]2O)n1 | HeLa | TYPE 1 | >200 µg/mL
Cc1ccc(C(=O)CCCCCCOc2ccc(C3=NCCO3)cc2Cl)s1 | VERO | TYPE 1 | 24.63 µM
CON1CCc2c([nH]c3ccccc23)[C@@H]1[C@@H](N)CSC | HeLa | TYPE 1 | >10 µg/mL
C=C(N=CC)c1nc(-c2ccccc2)n([C@@H]2O[C@H](CO)[C@@H](O)[C@H]2O)n1 | HeLa | TYPE 1 | >200 µg/mL
Nc1ccn([C@@H]2C[C@H](CO)[C@@H](O)[C@H]2O)c(=O)n1 | HeLa |  | >400 µg/mL
Cc1ccc(C(=O)CCCCOc2ccc(C3=NCC(C)O3)cc2Cl)s1 | VERO | TYPE 1 | 16.1 µM
Clc1ccc(C2=Cc3ccccc3OC2)cc1 | HEP-2 | SABIN (TYPE 2) | >10 µM
CCN(CC)c1cc(-c2ccc(OC)cc2O)on1 | VERO | SABIN (TYPE 1) | >381 µM
CN=C(c1ccccc1)c1ccc2nc(N)n(S(=O)(=O)C(C)C)c2c1 | HeLa | Type 1/Mahoney | 0.06 µg/mL
Cc1cccn2c(C3OCCO3)cnc12 | HeLa | TYPE 1 | >1000 µM
O=C1/C(=C/c2ccccc2)COc2ccccc21 | HeLa | TYPE 2 | >6.25 µM
CC=NC(=N)c1nc(-c2ccccc2)n(Cc2ccccc2)n1 | HeLa | TYPE 1 | >10 µg/mL
Nc1ncnc2c1ncn2[C@@H]1O[C@H](CO)[C@](O)(C(F)(F)F)[C@H]1O | HeLa | TYPE 1 | >400 µg/mL
Clc1ccc(C2CCc3ccccc3O2)c(Cl)c1 | HEP-2 | II (TYPE 2) | >10 µM
O=c1ccn([C@@H]2O[C@H](CO)[C@](O)(C(F)(F)F)[C@H]2O)c(=O)[nH]1 | HeLa | TYPE 1 | >400 µg/mL
COc1cc(C(=O)Oc2c(-c3ccc(Cl)cc3)oc3ccccc3c2=O)cc(OC)c1OC(C)=O | HeLa | TYPE 2 | >1.56 µM
CCOC(=O)c1ccc(OCCCCc2cc(C=O)n(C)c2)cc1 | VERO | Type 1/Sabin strain | 5 µM
O=C1/C(=C/c2ccc(Cl)cc2)COc2ccccc21 | HeLa | TYPE 2 | >6.25 µM
Clc1ccc(-c2cc(SSc3cc(-c4ccc(Cl)cc4)sn3)ns2)cc1 | HEP-2 | Type 1/Brunhilde | 1.1 µM
Cc1ccc(C(=O)CCCCCCOc2ccc(C3=NC(C)(C)CO3)cc2)s1 | VERO | TYPE 1 | >26.95 µM
[N-]=[N+]=N[C@H]1[C@@H](F)[C@H](n2cnc3c(N)ncnc32)O[C@@H]1CO | HeLa | TYPE 1 | >200 µg/mL
CSc1nsc(-c2ccc(O)cc2)c1C#N | HEP-2 | TYPE 1 | 0.4 µM
Cc1ccn2c(C3OCCO3)cnc2c1 | HeLa | TYPE 1 | >1000 µM
O=c1c(Cc2ccc(Cl)cc2)coc2cc(Cl)cc(Cl)c12 | HeLa | TYPE 2 | 16.89 µM
CCC1COC(c2ccc(OCCCCC(=O)c3ccc(C)s3)cc2)=N1 | VERO | TYPE 3 | >26.95 µM
Nc1ncnc2c1ncn2C1CC(COP(=O)(O)O)[C@@H](O)[C@H]1O | HeLa | TYPE 1 | >10 µg/mL
COc1cc(/C=N/N=C(/N)NO)cc(OC)c1OC.Cc1ccc(S(=O)(=O)O)cc1 | VERO | Brunhilde (type 1) | >50 µM
O=C(Oc1c(-c2ccc(Cl)cc2)oc2ccccc2c1=O)c1cc(O)c(O)c(O)c1 | HeLa | TYPE 2 | >25 µM
CCC(=O)C(CCCCCCOc1ccc(OC)cc1Cl)C(=O)CC | HeLa | MEF (TYPE 2) | 0.07–0.14 µM
Cc1cn(CC[C@H](O)CCO)c(=O)[nH]c1=O | HeLa | TYPE 1 | >400 µg/mL
Nc1nc(F)nc2c1ncn2[C@@H]1C=C(CO)[C@@H](O)[C@H]1O | HeLa | TYPE 1 | ≥40 µg/mL
C1=C(c2ccccc2)COc2ccccc21 | HEP-2 | IA (TYPE 2) | <10 µM
Nc1nc2c(ncn2CC[C@H](O)CCO)c(=O)[nH]1 | HeLa | TYPE 1 | >400 µg/mL
CCOc1ccc(-c2onc(N(CC)CC)c2Cc2c(N(CC)CC)noc2-c2ccc(O)cc2O)c(O)c1 | VERO | SABIN (TYPE 1) | >17 µM
CC=NC(=N)c1nc(-c2ccc(OC)cc2)n(COCCO)n1 | HeLa | TYPE 1 | >200 µg/mL
Brc1ccc(C2=Cc3ccccc3OC2)cc1 | HEP-2 | II (TYPE 2) | >10 µM
CCN(CC)c1noc(-c2ccc(O)cc2O)c1Cc1c(N(CC)CC)noc1-c1ccc(OC)cc1O | VERO | SABIN (TYPE 1) | >3.5 µM
CC=NC(=N)c1nc(-c2ccc(OC)cc2)n(C/C=C/c2ccccc2)n1 | HeLa | TYPE 1 | >400 µg/mL
CO[C@H](CO)[C@@H](O)CCn1cnc2c(N)ncnc21 | HeLa | TYPE 1 | >400 µg/mL
Clc1ccc(C2=Cc3cc(Cl)ccc3OC2)cc1 | HEP-2 | II (TYPE 2) | >10 µM
COc1cc(/C=C/C(=O)Oc2c(-c3ccc(Cl)cc3)oc3ccccc3c2=O)ccc1O | HeLa | TYPE 2 | >6.25 µM
O=C1c2ccccc2OCC1Cc1ccc(O)cc1 | HeLa | TYPE 2 | >6.25 µM
COc1cc(/C=C/C(=O)Oc2c(-c3ccc(Cl)c(Cl)c3)oc3ccccc3c2=O)ccc1OC(C)=O | HeLa | TYPE 2 | >0.39 µM
CS(=O)(=O)c1ccc(Oc2ccc(C(=O)c3ccccc3)cc2)nc1 | HeLa | TYPE 2 | >10 µg/mL
NC1CSCCN2CCc3c([nH]c4ccccc34)[C@H]12 | HeLa | TYPE 1 | 20 µg/mL
O=C1/C(=C/c2ccc(Cl)cc2)COc2cc(Cl)cc(Cl)c21 | HeLa | TYPE 2 | >6.25 µM
COc1ccc(OCc2ccc(COc3c(Cl)cccc3Cl)cc2)c(Cl)c1 | HeLa | TYPE 2 | 0.08 µg/mL
NC1CCCON2CCc3c([nH]c4ccccc34)[C@H]12 | HeLa | TYPE 1 | 7 µg/mL
CCN(CC)c1cc(-c2ccc(OC)cc2OC)on1 | VERO | SABIN (TYPE 1) | 20 µM
S=c1cc(-c2ccccc2)s[nH]1 | HEP-2 | Type 1/Brunhilde | 0.42 µM
O=c1c(O)c(-c2ccc(Cl)c(Cl)c2)oc2ccccc12 | HeLa | TYPE 2 | >6.25 µM
COc1ccc(OC)c(/C=N/N=C(/N)NO)c1.Cc1ccc(S(=O)(=O)O)cc1 | VERO | Brunhilde (type 1) | >50 µM
CC=NC(=N)c1nc(-c2cccc(C)c2)n(C/C=C/c2ccccc2)n1 | HeLa | TYPE 1 | >10 µg/mL
CCC1COC(c2ccc(OCCCCCCC(=O)c3ccc(C)s3)cc2)=N1 | VERO | TYPE 1 | >25.06 µM
Clc1ccc(C2COc3ccccc3C2)cc1 | HEP-2 | IB (TYPE 2) | >10 µM
Cc1ccn2c(C3OCCS3)cnc2c1 | HeLa | TYPE 1 | >1000 µM
COc1ccc(/C=C2\COc3ccccc3C2=O)cc1 | HeLa | TYPE 2 | >6.25 µM
COc1ccc(-c2snc(SC)c2C#N)cc1 | HEP-2 | TYPE 1 | 0.6 µM

Repeating the final 6 entries:

structure | cell line | strain | result
CC=NC(=N)c1nc(-c2cccc(C)c2)n(C/C=C/c2ccccc2)n1 | HeLa | TYPE 1 | >10 µg/mL
CCC1COC(c2ccc(OCCCCCCC(=O)c3ccc(C)s3)cc2)=N1 | VERO | TYPE 1 | >25.06 µM
Clc1ccc(C2COc3ccccc3C2)cc1 | HEP-2 | IB (TYPE 2) | >10 µM
Cc1ccn2c(C3OCCS3)cnc2c1 | HeLa | TYPE 1 | >1000 µM
COc1ccc(/C=C2\COc3ccccc3C2=O)cc1 | HeLa | TYPE 2 | >6.25 µM
COc1ccc(-c2snc(SC)c2C#N)cc1 | HEP-2 | TYPE 1 | 0.6 µM

ECn is the concentration giving n% inhibition of infection, replication or growth. Blank or dashed fields: not listed here. Two numbers with a dash give a range or band.